Anti-infective test results gathered from many reports (values: NIAID ChemDB through PubChem).

Shared fields: whole-cell or culture tests; organism: HIV-1; measure: EC50

Blank or dashed fields: not listed here.

CC(C)C1=C2[C@H]3CC[C@@H]4[C@@]5(C)CC[C@H](OC(=O)[C@@H]6C[C@H](C(=O)O)C6(C)C)C(C)(C)[C@@H]5CC[C@@]4(C)[C@]3(C)CC[C@@]2(CCN(CCN(C)C)C(=O)c2ccc(Cl)cc2)CC1=O ; strain: 92HT599 ; read by: p24 / ELISA ; cells: MT-2 ; value: <1 µM
N#Cc1cc2ccc(N[C@H]3CCNC3)cc2n(-c2ccc([N+](=O)[O-])cc2)c1=O ; strain: IIIB ; read by: GFP / reporter gene ; cells: MT-4 ; value: 6.54 µM
CC(=O)Nc1nc(C)c(S(=O)(=O)N(CC2CCCC2)C[C@@H](O)CN(CCc2ccccc2)C(=O)c2ccccc2)s1 ; strain: IIIB ; read by: p24 ; cells: CEM ; value: <1 µM
Nc1ncnc2c1ncn2[C@@H]1C=C[C@H](CO)[C@H]1CO ; strain: MN ; read by: XTT ; cells: MT-4 ; value: 1.9 µg/mL
CC(C)CN(C(=O)C(=O)C(=O)c1ccccc1C(=O)NC(C)(C)C)S(=O)(=O)c1ccccc1 ; strain: IIIB ; read by: p24 ; cells: CEM ; value: <1 µM
Cc1ccnc2c1NC(=O)c1cccnc1N2C1CC1 ; strain: NL4-3 ; read by: luciferase / luminescence ; cells: TZM-bl ; value: 0.06129 µM
CCCC(C(=O)O)c1c(C)nc2ccc(Cl)cc2c1-c1ccccc1Cl ; read by: luciferase / reporter gene ; cells: C8166 ; value: <20 µM
CSCSc1nc(Cc2cc(C)cc(C)c2)c(C(C)C)c(=O)[nH]1 ; strain: IIIB ; read by: MTT / p24 ; cells: PBMC ; value: 0.016 µM
COc1ccc(S(=O)(=O)N(CC2CCCC2)C(=O)C(=O)C(=O)N(CC2CCCC2)S(=O)(=O)c2ccccc2)cc1 ; strain: IIIB ; read by: p24 ; cells: CEM ; value: <1 µM
CC(C)C1=C2[C@H]3CC[C@@H]4[C@@]5(C)CC[C@H](OC(=O)[C@H]6C[C@@H](C(=O)O)C6(C)C)C(C)(C)[C@@H]5CC[C@@]4(C)[C@]3(C)CC[C@@]2(CC(=O)NC2(c3ccc(Cl)cc3)CCC2)CC1=O ; strain: 92HT599 ; read by: p24 / ELISA ; cells: MT-2 ; value: <1 µM
C=C(C)[C@@H]1CC[C@]2(C(=O)NCCCCCCCCC(=O)N[C@H](CCC(N)=O)C(=O)OC)CC[C@]3(C)[C@H](CC[C@@H]4[C@@]5(C)CC[C@H](OC(=O)CC(C)(C)C(=O)O)C(C)(C)[C@@H]5CC[C@]43C)[C@@H]12 ; mutations: V362I ; strain: NL4-3 ; read by: absorbance ; value: 0.016 µM
Cc1nc2ccc(Cl)cc2c(-c2ccc(C(C)(C)C)cc2)c1C(OC(C)C)C(=O)O ; read by: luciferase / reporter gene ; cells: C8166 ; value: <20 µM
COc1cc(/C=C/C#N)cc(OC)c1-c1cccc2c(N)nc(Nc3ccc(C#N)cc3)nc12 ; mutations: K103N ; strain: HXB2 ; read by: cytopathic effect / luminescence ; cells: MT-4 ; value: 0.0015 µM
CCC[C@H](C(=O)O)c1c(-c2ccc(Cl)cc2)c2cc(Cl)ccc2n(CCNC(=O)OC(C)(C)C)c1=O ; read by: luciferase / reporter gene ; cells: C8166 ; value: <20 µM
COC(=O)c1c(C)cc(=O)c(O)c(O)c1O ; strain: RF ; read by: cytopathic effect / absorbance ; cells: CEM-SS ; value: >50 µM
O=C(c1ccccc1)N(CCc1ccccc1)C[C@H](O)CN(CC1CCCC1)S(=O)(=O)C1CCS(=O)(=O)C1 ; strain: IIIB ; read by: p24 ; cells: CEM ; value: <1 µM
N#Cc1c(N)c2ccc(-c3ccccc3)cc2n(-c2ccc([N+](=O)[O-])cc2)c1=O ; strain: IIIB ; read by: GFP / reporter gene ; cells: MT-4 ; value: 20.21 µM
COC(=O)c1c(C)cc(OC)c(O)c(=O)c1OC ; strain: RF ; read by: cytopathic effect / absorbance ; cells: CEM-SS ; value: >50 µM
CSCSc1nc(Cc2ccccc2)c(C)c(=O)[nH]1 ; strain: IIIB ; read by: MTT / p24 ; cells: PBMC ; value: 3.4 µM
Cc1nc2ccc(Br)cc2c(-c2ccc(Cl)cc2)c1[C@H](OC(C)C)C(=O)O ; read by: luciferase / reporter gene ; cells: C8166 ; value: <20 µM
Cc1ccc(-c2nc3ccc(C(=O)NC[C@H](O)[C@@]45CC[C@]6(C)[C@H](CC[C@@H]7[C@@]8(C)CC[C@H](OC(=O)[C@H]9C[C@@H](C(=O)O)C9(C)C)C(C)(C)[C@@H]8CC[C@]76C)C4=C(C(C)C)C(=O)C5)cc3[nH]2)cn1 ; strain: 92HT599 ; read by: p24 / ELISA ; cells: MT-2 ; value: <1 µM
CC(=O)[C@H](C)OC(C(=O)O)c1c(C)nc2ccc(Br)cc2c1-c1ccc(Cl)cc1 ; read by: luciferase / reporter gene ; cells: C8166 ; value: <20 µM
Nc1ccn([C@H]2CC[C@@H](CO)O2)c(=O)n1 ; mutations: H132Y ; strain: NL4-3 ; read by: β-galactosidase ; value: 0.394 µM
COP(=O)(c1cc(C)cc(CCC#N)c1)c1c(C(N)=O)[nH]c2ccc(Cl)cc12 ; strain: IIIB ; read by: cytopathic effect ; cells: MT-4 ; value: 0.0005 µM
CC(C)C1=C2[C@H]3CC[C@@H]4[C@@]5(C)CC[C@H](OC(=O)[C@H]6C[C@@H](C(=O)O)C6(C)C)C(C)(C)[C@@H]5CC[C@@]4(C)[C@]3(C)CC[C@@]2(CC(=O)NC2(c3ccc(Cl)cc3)CCCC2)CC1=O ; strain: 92HT599 ; read by: p24 / ELISA ; cells: MT-2 ; value: <1 µM
N#Cc1cc2ccc(O[C@@H]3CCNC3)cc2n(-c2ccc([N+](=O)[O-])cc2)c1=O ; strain: IIIB ; read by: GFP / reporter gene ; cells: MT-4 ; value: 1.25 µM
COc1ccc(S(=O)(=O)N(Cc2ccccc2)CC(F)(F)C(=O)[C@@H](Cc2ccccc2)NC(=O)OC2COCOC2)cc1 ; strain: IIIB ; read by: p24 ; cells: CEM ; value: <1 µM
CC(C)C1=C2[C@H]3CC[C@@H]4[C@@]5(C)CC[C@H](OC(=O)[C@H]6C[C@@H](C(=O)O)C6(C)C)C(C)(C)[C@@H]5CC[C@@]4(C)[C@]3(C)CC[C@@]2([C@@H](O)CNC(=O)C(C)(C)NC(=O)c2ccncn2)CC1=O ; strain: 92HT599 ; read by: p24 / ELISA ; cells: MT-2 ; value: <1 µM
N#Cc1cc2ccc(N[C@@H]3CCNC3)cc2n(-c2ccc([N+](=O)[O-])cc2)c1=O ; strain: IIIB ; read by: GFP / reporter gene ; cells: MT-4 ; value: 4.78 µM
Cc1nc2ccc(Br)cc2c(-c2ccc(Cl)cc2)c1C(OCC1CC1)C(=O)O ; read by: luciferase / reporter gene ; cells: C8166 ; value: <20 µM
CC(C)C1=C2[C@H]3CC[C@@H]4[C@@]5(C)CC[C@H](OC(=O)[C@H]6C[C@@H](C(=O)O)C6(C)C)C(C)(C)[C@@H]5CC[C@@]4(C)[C@]3(C)CC[C@@]2(CC(=O)NCc2csc(N)n2)CC1=O ; strain: 92HT599 ; read by: p24 / ELISA ; cells: MT-2 ; value: <1 µM
CC1(C)CC(=O)C(S(=O)(=O)N(CC2CCCC2)C[C@@H](O)CN(CCc2ccccc2)C(=O)c2ccccc2)C(=O)S1 ; strain: IIIB ; read by: p24 ; cells: CEM ; value: <1 µM
Cc1nc2ccc(Br)cc2c(-c2ccc(Cl)cc2)c1C(CC(C)C)C(=O)O ; read by: luciferase / reporter gene ; cells: C8166 ; value: <20 µM

A second listing of 3 rows from above:

SMILES	mutations	strain	read by	cells	value
CC1(C)CC(=O)C(S(=O)(=O)N(CC2CCCC2)C[C@@H](O)CN(CCc2ccccc2)C(=O)c2ccccc2)C(=O)S1		IIIB	p24	CEM	<1 µM
Cc1nc2ccc(Br)cc2c(-c2ccc(Cl)cc2)c1C(CC(C)C)C(=O)O			luciferase / reporter gene	C8166	<20 µM
Cc1nc2ccc(Cl)cc2c(-c2ccc(C(C)(C)C)cc2)c1C(OC(C)C)C(=O)O			luciferase / reporter gene	C8166	<20 µM

ECn: concentration that inhibits the pathogen or its effect by n%. Lines come from different laboratories, so protocols vary.